The exact form of at least one protein or probe is not confirmed.
The sequences below were run against HrpG (Xanthomonas campestris pv. campestris 8004) (UniProt Q8PBF6) (assay: EMSA). Conditions: EMSA: 10 mM Tris-HCl pH 7.5, 50 mM KCl, 1 mM DTT, 50 ng poly(dI:dC), 0-40 uM protein, 28 C 30 min; recombinant protein; label: 32P; probe letters rebuilt from the primers and the genome.
“AGCATGCAGCAATCACACGCACAAGACATGTTGCAGCGCAGTGGCACGGTGTCCTGTCTCCGCTGTCCATTGCTGTCTCTTTTGCGTGTCTCTCTGCGCGAATGCCGCGGTCTGTCAAATTTCCACAACTGGATAATTGTTTTCTGTTTCAAGACGCGCGAAGAATGCACGCCCCCACGCACCGCGTTGCCGTCGTCATGCACTCGCTGACGCCCTGCAGCGTTTTCGAATTCC (double strand) [XC1298 promoter EMSA probe]”: binds.
“GTTCTCCTGTCAGAACTTGTAGCGCGCGCCGACGTAGTACTGGCGCCCGGTGACGGTGTATTTGTCGGGCAGTTCCAGTGCGGAATCGACGTAGCGGCGGTCGGGGGTATCGAGCAGGTTGATGGCCTCAAACGTCAGCGACAGGTGGTCGCTGATCTTGTAGGACATGTTGAAATCGACGTTTTCCACGCTGTATTTGCCGGTGACATCGGCGGTGGCCAGGCGCTGGCCATCGAGGTTGTAGACGTCTTCCTGGGCGAGGATGTTGTTGATGT (double strand) [XC0125 promoter EMSA probe]”: binds.
“GGCCGCTATTGCTGCACCCCCATTCTGAGCGAGCCGTCGCCGGACGATCCGCTTCCAAGGCGAACGTGTGCATGGGTGTACGAAGCACGACGTGTTTGTTCGCGATGGCATTCCGATGTTCGCTTCTGAAAAGTCTTCGTTGGCGCCGAAGCGTACGTTACGCACGCATGCTGTCCACGGCCATTGAATGAAGAGGTGCGGTATGGAAAAGATTGAATGTCCCGGTTCGGTCGTGAGCGGGCTG (double strand) [hrcUp EMSA probe]”: binds.
“GGATTAACGGCCATTTGACATTGAGCGCGAGCGATCGCAGATGTTTAGCGCGCCTTCGCGCATCTGCGTGCCGAACACCGCATCCGTACGCCCACGCATCGTCCTGTGATGCACCGTCAAGATACGCCGGCGCATCGTCTGGCCTTCGTCGCTATGCAGGTGCGGGATCCACTTCGCAGTTTGCAAGACAGAGTGAGAATTTTTGAATTTCTAGCTGCTGCGAAGTGAGAAATTCTATTGGATCCGCTGCATACAATCGTTTGCGCCCACCACAACGGCGCCTTTTGTTGTTTTTGCTCCTCCCCTTCAG (double strand) [hrpXp EMSA probe]”: binds.
“GGCTCTCTCCAGGGCACTGGGGTGCAATGACGCGCTCAGCCCCCCTAGGCCACCGGCGTCGAACGAAACATCACGCCCACCGCGTTGCATGCGTGCGTCTCGGCAGCGCATACACGGCGATCAAGCGTTTGCAATGGGGCCCGCTGCGCGTGTGCGCAGCGGGCGGGTGACACTCAGAACTTGTAGCGCAGGCCCAGCAGGTACTGGCGGCCGGTTTCACCGTATTGCAGCGGCAGCTGGCCGGTGCGCGGCGACGACACCCATTCGTCGGAGGCTTCGTTGGTG (double strand) [XC0124 promoter EMSA probe]”: binds.
“TCCACCAGCTGGTTTTCCACGCGCGAGCGCGCCCAGGTGGTGGCGAAGGCGAACAGCGTCGTCAGGCAGAAGCCCAGCAACACGAACGAGAGAATGATGCGGCTGCGCAGGCGCCGCCGGTAGCGGCCACGCCTGCGGGCGGGCCGCGTTCCGCTGGAGCTCTCAGGCATCGGGCGAGGCGATGCGGTAGCCGATGCCGTGACGGGTCTGGATCATCGGTACGTCGAACGGCTTGTCCACCAC (double strand) [vgrSp EMSA probe]”: binds.
“GAAGAGAAGTAACGTGGAGCGCTTGTCGGCGCGTTTTGCTTGACCAACGTGGCCAAGGAAATCGATGATCAAGGCATGCTGGCGATGTGCGCGACGATGTCTTGTGCAGCGTTGATGCCGTCGTGCAAGACAATGAAATCGTTGCGCGCAGCCTGATCGCTCGCGGCGGACCAATGCACACGGAGTTGTTGCGCTGTCGCGTGCAGCGCTGCCTCGATGTTGCGCAGTCGCTCGCCTGAGAGATCCTGCGCCTTGGTCTGCAAGATCTTGCTCATATCCTGGGTGAGCGTGTC (double strand) [hrpEp EMSA probe]”: binds.
“CCGTTATGGTGCTGCGATCGAGCGAAGCGTTGGATCAATCGAGGTGTGCGTCCACGCCGCTGCGTTGCTCGAATCAACGACGATCAGGTGACAGGCATGAAAGAGACCGATACGCCGACCACGTGTGCGTCCGTGCACGGCACGGGTGCTTGGCGTCCACAGTGCTGGGCCACGCTCTGCAGCAACATGCGAGCAGACCAGCGACGCTGTGCGCTTCAGCCCGGGCAGGCTGCTGCCCCTCTGCGACG (double strand) [hpa2p EMSA probe]”: binds.
